Measured values from BindingDB's records for 10450950.

Target: Neuraminidase (Influenza A virus (strain A/Tern/Australia/G70C/1975 H11N9), UniProt P03472)
Assay: ASSAY_NAME: Neuraminidase Inhibition Assay DESCRIPTION: A standard fluorimetric assay was used to measure influenza virus neuraminidase activity. The substrate 2 -(4-methylumbelliferyl)-alpha-D-acetylneuraminic acid is cleaved by neuraminidase to yield a fluorescent product that can be quantified. Fluorescence was read using an Aminco-Bowman fluorescence spectrophotometer (excitation, 360 nm; emis
Conditions: pH 6.5

In the case of `CC(=O)Nc1c(N=C(N)N)cc(C(=O)O)cc1N=C(N)N`, the IC50 is reported as 250 µM.
